Laboratory results: PubChem BioAssay AID1224833 (University of Georgia, 2016)
The deposit covers about 12,000 reagents; shown is a random part of them. Of all reagents, about 5,600 (46%) got an active call. 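Active calls cover z-scores past 1 in both directions, so they include lowered as well as raised rotavirus replication.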 Reagent sequences are not shown.

Screen: 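Human genes whose knock-down alters rotavirus replication in monkey cells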 (primary screen)
Cells: monkey MA104 kidney cells
Reagents: siRNA pool against human genes, 50 nM
Duration: 48 h knock-down before infection; read 24 h after infection
Treatment: infection with rotavirus strain RV3 two days after transfection; infectious dose for this stage not given
Measured: 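Rotavirus antigen per well by fluorescent immunoassay, normalised to non-targeting control wells on each plate and given as a standard z-score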
Reading the numbers: z-score vs non-targeting control: higher = more rotavirus replication than with non-targeting control
Hit rule: In these data the active calls have z-score vs non-targeting control at about -1 or lower, or at about 1 or higher
Calls: active = z-score beyond 1 either way; inactive = z-score within 1 of zero

gene symbol	z-score vs non-targeting control	Outcome
NR2F1	-1.09	active
TSPYL2	3.55	active
DEFB106A	0.916	inactive
APPL1	0.0684	inactive
TMEM242	-1.94	active
KIAA1958	0.771	inactive
TTC23	1.76	active
INTS7	-0.46	inactive
TM7SF3	-1.17	active
SPTBN4	-0.808	inactive
ZNF599	0.582	inactive
SRP68	-0.249	inactive
PRDM11	-1.87	active
CCNL1	0.543	inactive
ZNF549	-0.85	inactive
PTTG1IP	-2.36	active
OR13G1	1.47	active
ANK3	-1.09	active
NLRP4	0.723	inactive
OR5B21	1.06	active
WASHC4	-0.752	inactive
RPL7L1	-0.486	inactive
AQP6	1.24	active
PCDH11X	-2.14	active
SEC14L1	-0.996	inactive
ZBTB6	0.0671	inactive
MYBPHL	1.04	active
SLAMF9	0.234	inactive
PRAM1	0.342	inactive
EPCAM	-0.228	inactive
FCRLA	-0.844	inactive
ISG20L2	-1.55	active
PLAGL2	1.09	active
MRPL21	-1.54	active
NAA11	2.03	active
CLTB	1	active
VCL	0.593	inactive
GPR179	0.881	inactive
TTPA	-0.131	inactive
POLDIP3	2.71	active
SEL1L	-1.72	active
SNX12	-0.343	inactive
LDLRAP1	-1.31	active
IBTK	0.369	inactive
VPS36	1.75	active
GORASP1	1.29	active
PRRG1	-0.446	inactive
TWIST1	-1.41	active
USF1	2.52	active
ZNF554	1.5	active
SLCO1B3	-0.0769	inactive
IRF2BPL	-0.0891	inactive
OR2A12	-1.61	active
TEX9	-1.7	active
TRIML2	-0.946	inactive
ITGAX	-2.54	active
IGSF5	-0.826	inactive
SLC6A7	-0.575	inactive
C10orf62	-1.45	active
ZNF619	-0.391	inactive
SURF4	0.271	inactive
TCEAL7	0.519	inactive
RBM10	2.34	active
DONSON	-2.49	active
MFHAS1	0.718	inactive
SEPTIN2	0.052	inactive
PNRC1	1.07	active
MSC	-1.07	active
INCA1	0.623	inactive
PTGS2	-1.65	active
SLC2A4RG	-0.657	inactive
MCM6	-1.92	active
STEEP1	-0.464	inactive
CLSTN1	0.363	inactive
PRR25	-1.86	active
CASC3	-0.181	inactive
CREB3	2.24	active
TRMT1	-1.4	active
CEP192	-0.099	inactive
SWSAP1	-0.837	inactive
RPL32	-0.0907	inactive
KRTAP13-3	-1.13	active
FSTL5	2.09	active
TECRL	-1.47	active
SAXO6	-1.42	active
CAV3	0.817	inactive
OR2T2	-0.347	inactive
GRP	-0.17	inactive
WASHC5	0.168	inactive
DHRS4	-0.57	inactive
WSCD2	-2.01	active
ERBIN	0.814	inactive
TMEM18	0.12	inactive
ZNF500	0.954	inactive
TMEM175	0.463	inactive
IFNL1	-0.632	inactive
TCAP	1.3	active
FAIM	-0.991	inactive
KDM1A	-0.513	inactive
OXCT2	-0.775	inactive
LRRC15	-1.16	active
ZWINT	-0.952	inactive
ACBD5	2.31	active
CARNMT1	-0.538	inactive
GNPNAT1	2.19	active
ANKRD10	-1.21	active
SHROOM4	1.39	active
UNC5D	-0.882	inactive
EMP1	-1.97	active
NAGS	0.529	inactive

No new results follow: entries from further up.
gene symbol	z-score vs non-targeting control	Outcome
MFHAS1	0.718	inactive
SEPTIN2	0.052	inactive
PNRC1	1.07	active
MSC	-1.07	active
INCA1	0.623	inactive
PTGS2	-1.65	active
SLC2A4RG	-0.657	inactive
MCM6	-1.92	active
STEEP1	-0.464	inactive
